# Assay results from PubChem BioAssay AID898 (University of Pittsburgh Molecular Library Screening Center, 2007).
# Only a part is listed here, and it is no random draw. Calls of active or inactive are those of the source. Cut-off read from the data, not from the text of the source: active = inhibition above about 50%; inactive = the rest.
# Tested on: YopH tyrosine phosphatase [Yersinia enterocolitica]
# Test: YopH tyrosine phosphatase inhibitors, primary screen, biochemical, fluorescence Ex485/Em525 (AID 898)
# Settings: active compounds read high, concentration not given here
row,Structure (SMILES),inhibition
1,O=C(OC1CN2CCC1CC2)C1c2ccccc2C=Cc2ccccc21 (stereo not drawn),inactive: -32.6%
2,N/C(=N\O)c1c(N)no[n+]1[O-],inactive: 6.98%
3,c1ccc(CN2CCC(Nc3ccccc3)CC2)cc1,inactive: 14.7%
4,CCN1CCC(Nc2cccc(F)c2)CC1,inactive: -5.36%
5,CCOc1ncccc1C(=O)NCC1(N2CCOCC2)CCCCC1,inactive: -36.9%
6,CCC(CO)(C(=O)OC1CN2CCC1CC2)c1ccccc1 (stereo not drawn),inactive: -48.5%
7,O=C(OC1CN2CCC1CC2)C1c2ccccc2Oc2ccccc21 (stereo not drawn),inactive: -27.7%
8,O=C(NCC1(N2CCOCC2)CCCCC1)c1cc2ccccc2o1,inactive: -13.8%
9,COc1ccc(NC2CCN(CCc3ccccc3)CC2)c(OC)c1,inactive: -33.4%
10,N#CC1(Nc2ccccc2)CCN(CCc2ccccc2)CC1,inactive: -22.9%
11,CN1CCN(CCOC(=O)C(O)(c2ccccc2)c2ccccc2)CC1,inactive: -20.4%
12,O=C(NCC1(N2CCOCC2)CCCCC1)c1cc(=O)[nH]c2ccccc12,inactive: 12.3%
13,CN1CCC(Nc2cccc(F)c2)CC1,inactive: -31.9%
